Pooled drug test results. Numbers come from NIAID ChemDB, via PubChem.

Common to all: growth or infection tests; species: Mycobacterium tuberculosis

ECn: concentration that inhibits the pathogen or its effect by n%. MIC bound: limit read from a one-dose screen. A number after MIC or MFC names an inhibition level or a share of isolates. Blank or dashed fields: not listed here. Inhibition is in % at the dose shown (toxicity tests: loss of growth or viability). Conditions beyond the fields shown may differ between rows.

structure	method	tested at	setting	endpoint	strain	cell line	changes	value
CCC1CC2CCC(c3cc4c(cc3OC)N(C)C3C(O)(C(=O)OC)C(OC(C)=O)C5(CC)C=CCN6CCC43C65)c3[nH]c4ccccc4c3CCN(C1)C2	BACTEC	12.5 µg/mL		inhibition	H37Rv			-10%
O=C(/C=C/c1c(F)cccc1Cl)c1ccccc1	resazurin		21 d	MIC	H37Rv			16 µg/mL
Cn1c2ccccc2c2cc(C=NNc3nc(-c4cccc(Cl)c4)cs3)ccc21	fluorescence			EC50	H37Rv			>200 µM
CC1(C)CC(N=c2cc3n(-c4ccccc4Cl)c4ccccc4nc-3cc2Nc2ccccc2Cl)CC(C)(C)N1		0.005 µg/mL	inside macrophages	inhibition	H37Rv	Macrophages		85%
COC(=O)c1nccnc1N	BACTEC	12.5 µg/mL		inhibition	H37Rv			10%
O=c1oc2ccccc2c(O)c1C1=CC(c2cccc(Cl)c2)Sc2ccccc2N1	resazurin			MIC	H37Rv			<6.25 µg/mL
c1ccc(Cn2cc(Cn3c4ccccc4c4ccccc43)nn2)cc1	agar			MIC	H37Rv			50 µg/mL
CCN(CC)C(=O)C1=C(C)NC(C)=C(C(=O)OCCCCCc2ccccc2)C1c1ncc([N+](=O)[O-])n1C				MIC	H37Rv (ATCC 27294)			0.002 µM
C=COC(C)=O.O=C1C=CC(=O)O1	resazurin	6.25 µg/mL		inhibition	H37Rv			0%
CC(C)=CCc1c(O)ccc2oc3cc4c(c(O)c3c(=O)c12)C=CC(C)(C)O4				MIC	H37Ra			12.5 µg/mL
N/C(=N\N=C\c1ccccc1Br)c1ccncc1				MIC	1054			8 µg/mL
COC(=O)[C@H]1[C@H](O)[C@H](C)[C@@H](O)[C@@H](C)/C=C(\C)C2=C3C(=C(C)C(=O)c4c(O)c(c(C)c(OC(C)=O)c43)NC(=O)/C(C)=C/C=C\[C@@H](C)C(O)[C@@H](C)[C@H]1O)OCO2				MIC	CS-R			0.2 µg/mL
CCOC(=O)c1cc(-c2ccc(CO)cc2)on1	resazurin			MIC	H37Rv			2.1 µM
N/C(=N\N=C\c1ccccc1)c1ccncc1				MIC	1481			32 µg/mL
COc1c(O)cc2oc3cc4c(c(O)c3c(=O)c2c1CC=C(C)C)C=CC(C)(C)O4				MIC	H37Ra			12.5 µg/mL
c1ccc2c(c1)nc1cc(NC3CCCCC3)c(=NC3CCCCC3)cc-1n2C1CCCCC1	BACTEC			MIC bound	H37Rv			≤12.5 µg/mL
N/C(=N\N=C\c1ccc(Cl)c(Cl)c1)c1ccncc1				MIC	1054			256 µg/mL
C=C(C)CC[C@H]1CN(c2ccn(N3CCOCC3)c2)C(=O)O1				MIC90	ATCC 35828 (pyrazinamide-resistant)			>100 µM
CN(C)C/C=C(\c1ccc(O)cc1)c1ccc(-c2ccccc2)cc1				MIC	ALI 282			49 µg/mL
CCOC(=O)c1cc(CNc2ccc(C(F)(F)F)cc2)on1	resazurin			MIC	H37Rv			6.5 µM
Cc1ccc(NC(=S)SCc2ccc3c(c2)OCO3)cc1Br	BACTEC			MIC bound	H37Rv			>12.5 µg/mL
CCOC(=O)c1cc(-c2cccc(C)c2)on1	resazurin			MIC	H37Rv			1 µM
CC(C)=CCc1c(O)c2c(c3c(=O)c4c(O)c5c(cc4oc13)OC(C)(C)C=C5)C=CC(C)(C)O2				MIC	H37Ra			25 µg/mL
Cc1ccc(-n2cc(Cn3c4ccccc4c4ccccc43)nn2)cc1	agar			MIC	H37Rv			25 µg/mL
NCCCN1c2ccccc2Sc2ccccc21	resazurin			MIC	STB-825			1 µg/mL
Cn1c2ccccc2c2cc(C=NNc3nc(-c4ccccc4O)cs3)ccc21	fluorescence			EC50	H37Rv			39 µM
S=c1[nH]nc(-c2ccncc2)n1CCc1ccccc1				MIC	H37Rv			>6.25 µg/mL
COc1ccc(C(=O)/C=C/c2ccccc2Cl)cc1	resazurin		14 d	MIC	H37Rv			32 µg/mL
CN(C)CC=C(c1ccc(Br)cc1)c1ccc(-c2ccc(Br)cc2)cc1				MIC	ALI 552			17 µg/mL
Cc1nc(C(=O)N=C(N)N)c(N)nc1-c1ccccc1	BACTEC			MIC	H37Rv			≥12.5 µg/mL
CC(=O)NC[C@H]1CN(c2ccc(-c3ccc(CNCCCF)cc3)c(F)c2)C(=O)O1	low oxygen			EC90				0.8 µg/mL
CCOC(=O)c1cc(CN(C)c2ccc(OC(F)(F)F)cc2)on1	low oxygen			MIC	H37Rv			7.5 µM
C1=C2CCCC/C=C\C=C\CCN3CC[C@@H]4[C@H](CCCCCC/C=C\C=C/CCN(C2)C[C@H]14)C3				MIC	H37Rv (INH-resistant)			3.13 µg/mL
O=C(/C=C/c1ccc(F)cc1)c1ccc(O)cc1	MTT			MIC	H37Rv			32 µg/mL
CC(=O)Nc1ccc(S(=O)(=O)c2ccc(NC(=S)Nc3ccc(S(=O)(=O)c4ccc(NC(C)=O)cc4)cc3)cc2)cc1	BACTEC	0.5 µM		inhibition				0%
CCN(CC)C(=O)C1=C(C)NC(C)=C(C(=O)OC(C)C)C1c1ncc([N+](=O)[O-])n1C				MIC	H37Rv (ATCC 27294)			>0.5 µM
O=C(CSc1nnc(-c2ccncc2)n1-c1ccc(Br)cc1)c1ccccc1		6.25 µg/mL		inhibition	H37Rv			16%
CN(C)C/C=C(/c1ccc(Br)cc1)c1ccc(-c2ccc(Br)cc2)cc1				MIC	ALI 3082			17 µg/mL
CCOC(=O)c1cc(CNc2ccccc2CC)on1	low oxygen			MIC	H37Rv			31 µM
CO[C@H]1/C=C/O[C@@]2(C)Oc3c(C)c(O)c4c(O)c(c(/C=N/N5CCN(C)CC5)c(O)c4c3C2=O)NC(=O)/C(C)=C\C=C\[C@H](C)[C@H](O)[C@@H](C)[C@@H](O)[C@@H](C)[C@H](OC(C)=O)[C@@H]1C	resazurin			MIC	H37Rv			1 µg/mL
CSC(SC)(C(=O)O)c1cc(-c2c(Cl)cccc2Cl)no1	resazurin	6.25 µg/mL		inhibition	H37Rv			26%
CCCOC(=O)C1=C(C)NC(C)=C(C(=O)N(CC)CC)C1c1ncc([N+](=O)[O-])n1C				MIC	H37Rv (ATCC 27294)			0.002 µM
O=c1oc2ccccc2c(O)c1C1=Nc2ccccc2NC(c2ccc(O)cc2)C1	resazurin			MIC	H37Rv			>6.25 µg/mL
CCOc1cc(/C=C2/SC(=O)N(CC)C2=O)ccc1O	BACTEC	12.5 µg/mL		inhibition	H37Rv			5%
Clc1ccc(-n2cc(Cn3c4ccccc4c4ccccc43)nn2)c(Cl)c1	agar			MIC	H37Rv			25 µg/mL
C1CC2N=C3OCCC3N=C2O1	BACTEC			MIC bound	H37Rv			>12.5 µg/mL
CC(C)=CCc1c2c(c(O)c3c(=O)c4cccc(O)c4oc13)C=CC(C)(C)O2				MIC	H37Ra			12.5 µg/mL
Cn1c2ccccc2c2cc(C=NNc3nc(-c4ccc([N+](=O)[O-])cc4)cs3)ccc21	fluorescence			EC50	H37Rv			>200 µM
CCOC(=O)c1cc(CNc2cc(C)cc(C)c2)on1	resazurin			MIC	H37Rv			7 µM
CCCCCCC(=O)CCCCCC/C=C/CC1OC(=O)C(N)(CO)C1O.Cl	BACTEC	12.5 µg/mL		inhibition	H37Rv			0%
CCCCc1ccc(NC(=O)c2cc(Br)cc(Br)c2O)cc1				MIC	My 331/88			32 µM
COc1c(O)cc2oc3cc4c(c(O)c3c(=O)c2c1CC=C(C)C)CC(=O)C(C)(C)O4				MIC	H37Ra			200 µg/mL
Cc1nn(-c2ccccc2)c(Cl)c1-c1nc(N)nc2c1c(C)nn2-c1ccccc1	resazurin			MIC	H37Rv			3.25 µg/mL
Cn1c2ccccc2c2cc(C=NNc3nc(-c4ccc(O)cc4)cs3)ccc21	fluorescence			EC50	H37Rv			41 µM
CSC[S@](=O)C[C@H](CO)NC(=O)/C=C/c1c(C)[nH]c(=O)[nH]c1=O	BACTEC			MIC	H37Rv			≥12.8 µg/mL
Cn1c2ccccc2c2cc(C=NNc3nc(-c4ccc(Br)cc4)cs3)ccc21	fluorescence			EC50	H37Rv			110 µM
CC1(C)CC(N=c2cc3n(-c4cc(Cl)c(Cl)c(Cl)c4)c4ccccc4nc-3cc2Nc2cc(Cl)c(Cl)c(Cl)c2)CC(C)(C)N1			inside macrophages	EC50	H37Rv	Macrophages		<0.005 µg/mL
COC1=C(Br)[C@@H](O)[C@]2(C=C1Br)CC(C(=O)NCCCCNC(=O)C1=NO[C@]3(C=C(Br)C(OC)=C(Br)[C@@H]3O)C1)=NO2				MIC	H37Rv (isoniazid-resistant)			12.5 µg/mL
CCOC(=O)c1cc(CNc2ccc(F)cc2F)on1	low oxygen			MIC	H37Rv			25.3 µM
O=C(CSc1nnc(-c2ccncc2)n1-c1ccc(Cl)cc1)c1ccccc1				MIC	H37Rv			>6.25 µg/mL
CN(C)CC=C(c1ccccc1)c1ccc(-c2ccc(Br)cc2)cc1				MIC	ALI 909			10 µg/mL
CC(C)=CCc1c(O)cc2oc3cc(O)c4c(c3c(=O)c2c1O)C=CC(C)(C)O4				MIC	H37Ra			6.25 µg/mL
O=C(/C=C/c1ccc(F)cc1)c1ccc(F)cc1	MTT		14 d	MIC	H37Rv			32 µg/mL
CCOC(=O)c1cc(CNc2cccc3ccccc23)on1	resazurin			MIC	H37Rv			3.4 µM
O=c1oc2ccccc2c(O)c1C1=CC(c2ccc(Cl)cc2)Sc2ccccc2N1	resazurin			MIC	H37Rv			<6.25 µg/mL
N/C(=N\N=C\c1ccc(Cl)c([N+](=O)[O-])c1)c1ccncc1				MIC	1054			>256 µg/mL
Brc1ccc(Cn2cc(Cn3c4ccccc4c4ccccc43)nn2)cc1	agar			MIC	H37Rv			25 µg/mL
CC(=O)Nc1ccc(/C=N/NC(N)=S)cc1F	resazurin			MIC90	H37Rv		Ethambutol-resistant	<0.2 µg/mL
CCOC(=O)c1cc(-c2ccc3cc(OC)ccc3c2)on1	low oxygen			MIC	H37Rv			13.2 µM
CCCCCCCC/C=C/CCCCCCCC(=O)N(C)N(C)C(=O)CCCCCCC/C=C/CCCCCCCC	BACTEC			MIC bound	H37Rv			>12.5 µg/mL
Cn1c2ccccc2c2cc(C=NNc3nc(-c4cccs4)cs3)ccc21	fluorescence			EC90	H37Rv			>50 µM
Nc1c(S(=O)(=O)O)cc(Nc2cccc(CO)c2)c2c1C(=O)c1ccccc1C2=O	BACTEC			MIC bound	H37Rv			>12.5 µg/mL
CN(C)C/C=C(\c1ccc(I)cc1)c1ccc(-c2ccc(Br)cc2)cc1				MIC	H37Ra			9.5 µg/mL
N/C(=N\N=C\c1cccc(Br)c1)c1ccncc1				MIC	1342			64 µg/mL
O=C(/C=C/c1ccccc1Cl)c1ccc(F)cc1	resazurin		21 d	MIC	H37Rv			32 µg/mL
NNC(=O)c1ccccc1SSc1ccccc1C(=O)NN	BACTEC			MIC	H37Rv			≥12.5 µg/mL
CCCCCCCc1ccc(NC(=O)c2ccc(Cl)cc2O)cc1				MIC	My 331/88			4 µM
CC(C)=CCC/C(C)=C/Cc1c(O)cc2oc3c(O)cccc3c(=O)c2c1O				MIC	H37Ra			200 µg/mL
O=C(O)C(=O)O.OC(CNCCc1ccccc1)CN1c2ccccc2Sc2ccccc21	resazurin			MIC	MDR-6233			4 µg/mL
O=c1oc2ccccc2c(O)c1C1=Nc2ccccc2NC(c2cccc(Br)c2)C1	resazurin			MIC	H37Rv			>6.25 µg/mL
Cc1nc(C)c(C(=O)NNC(=O)c2ccccc2)cc1C(=O)NNC(=O)c1ccccc1	BACTEC	12.5 µg/mL		inhibition	H37Rv			2%
N/C(=N\N=C\c1ccc(Br)cc1)c1ccncc1				MIC	1481			64 µg/mL
Cc1ccc(NC(=O)COc2ccc(Cl)cc2Cl)cc1Cl	BACTEC			MIC bound	H37Rv			>12.5 µg/mL
COc1ccc(OC)c(/C=N/N=C(\N)c2ccncc2)c1				MIC	1342			256 µg/mL
CC1(c2ccc(Cl)s2)C(=O)N(Cl)C(=O)N1Cl	BACTEC			MIC bound	H37Rv			>12.5 µg/mL
Cc1nc(N)c2ncn([C@@H]3O[C@H](CO)[C@@H](O)[C@H]3O)c2n1				MIC	ATCC 35838 (rifampicin-resistant)			<1.56 µg/mL
CCCCCCc1ccc(NC(=O)c2cc(Br)cc(Br)c2O)cc1				MIC	My 331/88			16 µM

The last 11 rows once more:

| structure | method | tested at | setting | endpoint | strain | cell line | changes | value |
|---|---|---|---|---|---|---|---|---|
| CCCCCCCc1ccc(NC(=O)c2ccc(Cl)cc2O)cc1 |  |  |  | MIC | My 331/88 |  |  | 4 µM |
| CC(C)=CCC/C(C)=C/Cc1c(O)cc2oc3c(O)cccc3c(=O)c2c1O |  |  |  | MIC | H37Ra |  |  | 200 µg/mL |
| O=C(O)C(=O)O.OC(CNCCc1ccccc1)CN1c2ccccc2Sc2ccccc21 | resazurin |  |  | MIC | MDR-6233 |  |  | 4 µg/mL |
| O=c1oc2ccccc2c(O)c1C1=Nc2ccccc2NC(c2cccc(Br)c2)C1 | resazurin |  |  | MIC | H37Rv |  |  | >6.25 µg/mL |
| Cc1nc(C)c(C(=O)NNC(=O)c2ccccc2)cc1C(=O)NNC(=O)c1ccccc1 | BACTEC | 12.5 µg/mL |  | inhibition | H37Rv |  |  | 2% |
| N/C(=N\N=C\c1ccc(Br)cc1)c1ccncc1 |  |  |  | MIC | 1481 |  |  | 64 µg/mL |
| Cc1ccc(NC(=O)COc2ccc(Cl)cc2Cl)cc1Cl | BACTEC |  |  | MIC bound | H37Rv |  |  | >12.5 µg/mL |
| COc1ccc(OC)c(/C=N/N=C(\N)c2ccncc2)c1 |  |  |  | MIC | 1342 |  |  | 256 µg/mL |
| CC1(c2ccc(Cl)s2)C(=O)N(Cl)C(=O)N1Cl | BACTEC |  |  | MIC bound | H37Rv |  |  | >12.5 µg/mL |
| Cc1nc(N)c2ncn([C@@H]3O[C@H](CO)[C@@H](O)[C@H]3O)c2n1 |  |  |  | MIC | ATCC 35838 (rifampicin-resistant) |  |  | <1.56 µg/mL |
| CCCCCCc1ccc(NC(=O)c2cc(Br)cc(Br)c2O)cc1 |  |  |  | MIC | My 331/88 |  |  | 16 µM |